The series deals with T1, WT DprA (Streptococcus pneumoniae) (UniProt Q8DPI7).
T1 sequence (looked up, limits assumed): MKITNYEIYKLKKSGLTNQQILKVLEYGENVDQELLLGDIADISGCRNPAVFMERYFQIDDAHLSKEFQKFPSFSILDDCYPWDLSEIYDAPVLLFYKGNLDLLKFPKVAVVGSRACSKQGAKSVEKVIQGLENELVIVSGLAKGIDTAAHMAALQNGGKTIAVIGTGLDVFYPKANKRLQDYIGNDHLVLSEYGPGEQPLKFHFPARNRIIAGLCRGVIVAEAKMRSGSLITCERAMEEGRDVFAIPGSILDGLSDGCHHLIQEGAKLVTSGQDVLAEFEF
The series is described as follows: pull-down. The conditions noted are these: 20-640 pmol protein, 80 pmol DNA; Pull-down: 200 mM NaCl, 20 mM Tris-HCl pH 7.5, 20 C, 30 min; recombinant protein; single-stranded DNA.

The values that follow come from paper PMC4066776.

For at least one entry, the source does not settle the construct or the ends of the probe. At least one verdict rests on a figure or table, not on a statement of the authors. Where a protein sequence is shown, tags need not be part of it.

With “CGTCGTTTTACAACGTCGTGACTGGGAAAACCCTGGCGTTACCCAACTTAATCGCCTTGCAGCA [65-mer oligonucleotide]”, the binding result was “binds”.
